Paper PMC5803236 (Scientific Reports, 2018)

System: hemagglutinin (HA) of H9N2 A/Chicken/Korea/MS96/1996
Type: cell-based, Influenza A virus

Row | Compound | MIC [mM]
1 | CC(=O)N[C@H]1[C@H]([C@H](O)[C@H](O)CO)O[C@@](O[C@H]2[C@@H](O)[C@@H](CO)O[C@@H](O[C@H]3[C@H](O)[C@@H](O)C(O)O[C@@H]3CO)[C@@H]2O)(C(=O)O)C[C@@H]1O (some centres unmarked) [3′-sialyllactose] | 15.62 (≈ 9.9 mg/mL)
2 | CC(=O)N[C@H]1[C@H]([C@H](O)[C@H](O)CO)O[C@@](OC[C@H]2O[C@@H](O[C@H]3[C@H](O)[C@@H](O)C(O)O[C@@H]3CO)[C@H](O)[C@@H](O)[C@H]2O)(C(=O)O)C[C@@H]1O (some centres unmarked) [6′-sialyllactose] | > 200

≈ marks a conversion by molar mass, not a printed value.
